Pooled drug test results. Numbers come from NIAID ChemDB, via PubChem.

Shared fields: enzyme or target tests; agent: HIV-1; protein: Reverse transcriptase; method: nucleotide incorporation / radiometric; measure: IC50

Two numbers with a dash give a range or band. ICn is the concentration giving n% inhibition. Conditions beyond the fields shown may differ between rows.

{"SMILES": "Cc1cc(C2CC2)c2ccccc2c1-n1c(Br)nnc1SCC(=O)Nc1ccc(C(=O)O)cc1Cl", "mutations": "RT-Y188L", "result": ">0.1 µM"}
{"SMILES": "CCN1c2ncc(CCOc3ccc(-c4cc(C)[n+]([O-])c(C)c4)cc3C)cc2C(=O)N(C)c2cccnc21", "mutations": "RT-K103N Y181C", "strain or isolate": "IIIB", "result": "<0.05 µM"}
{"SMILES": "COc1ccc2c(C3CC3)ccc(-n3c(Br)nnc3SCC(=O)Nc3ccc(S(=O)(=O)O)cc3Cl)c2c1", "mutations": "RT-Y181C", "result": "<0.05 µM"}
{"SMILES": "CCN1c2ncc(CCOc3ccc(-c4c[n+]([O-])ccc4C)cc3C)cc2C(=O)N(C)c2cccnc21", "strain or isolate": "IIIB", "result": "<0.05 µM"}
{"SMILES": "Cc1cc(C)c2ccccc2c1-n1c(SCC(=O)Nc2ccc(S(N)(=O)=O)cc2Cl)nnc1C(F)(F)F", "result": "<0.05 µM"}
{"SMILES": "CCN1c2ncc(CCOc3ccc(/C=C(\\C)C(=O)O)c4ccccc34)cc2C(=O)N(C)c2ccc(F)nc21", "mutations": "RT-Y188L", "result": ">1 µM"}
{"SMILES": "O=C(CSc1nnc(Br)n1-c1cccc2c(OCC3CC3)cccc12)Nc1ccc(C(=O)O)cc1Cl", "result": ">0.1 µM"}
{"SMILES": "CCN1c2ncc(CCOc3ccc(CCC(=O)O)c4ccccc34)cc2C(=O)N(C)c2ccc(Cl)nc21", "mutations": "RT-Y188L", "result": ">1 µM"}
{"SMILES": "CCN1c2ncc(CCOc3cccc4c3ccc[n+]4[O-])cc2C(=O)N(C)c2ccc(Cl)nc21", "mutations": "RT-V106A", "result": "0.661 µM"}
{"SMILES": "CCN1c2ncc(CCOc3ccc(-c4ccc(CC(=O)O)cc4F)cc3C)cc2C(=O)N(C)c2cccnc21", "strain or isolate": "IIIB", "result": "<0.05 µM"}
{"SMILES": "CCN1c2ncc(CCOc3ccc(CCC(=O)O)c4ccccc34)cc2C(=O)Nc2c(C)cc(F)nc21", "strain or isolate": "WT", "result": "<0.1 µM"}
{"SMILES": "CCN1c2ncc(CCOc3ccc(-c4ccc(C)[n+]([O-])c4)cc3C)cc2C(=O)N(C)c2cccnc21", "strain or isolate": "IIIB", "result": "<0.05 µM"}
{"SMILES": "CNS(=O)(=O)c1ccc(NC(=O)CSc2nnc(C(F)F)n2-c2ccc(C)c3c2CCCC3)c(Cl)c1", "result": "<0.05 µM"}
{"SMILES": "CCN1c2ncc(CCOc3ccc(CCC(=O)O)c4c3CCCC4)cc2C(=O)N(C)c2cccnc21", "strain or isolate": "WT", "result": "<0.1 µM"}
{"SMILES": "CCN1c2ncc(CCOc3ccc(C(=O)NC(C)(C)C(=O)O)cc3C)cc2C(=O)N(C)c2cccnc21", "mutations": "RT-K103N Y181C", "strain or isolate": "IIIB", "result": "0.05–0.1 µM"}

2 of the rows above, restated:

{"SMILES": "CCN1c2ncc(CCOc3ccc(CCC(=O)O)c4ccccc34)cc2C(=O)Nc2c(C)cc(F)nc21", "strain or isolate": "WT", "result": "<0.1 µM"}
{"SMILES": "CCN1c2ncc(CCOc3ccc(-c4c[n+]([O-])ccc4C)cc3C)cc2C(=O)N(C)c2cccnc21", "strain or isolate": "IIIB", "result": "<0.05 µM"}